Tested on: cell medium used for HIV-1

`NC[C@H]1CC[C@H](C(=O)O)CC1` [Tranexamic Acid, tranexamic acid] was tested, and the “maximum concentration that could be used without cytotoxicity” value was 4 % (w/v).
